The values below are quoted from earlier work in PMC12391581 (Antiviral Research, 2025).

The data set concerns zoonotic influenza viruses. The conditions noted are these: swine influenza A(H1N1)v virus with NA-H275Y (sequence only, not tested phenotypically); ref NA marker tables; Baek et al., 2015; Hurt et al., 2009b; Ilyushina et al., 2010; Le et al., 2005; Nguyen et al., 2013; cited from earlier work.

For `CCOC(=O)C1=C[C@@H](OC(CC)CC)[C@H](NC(C)=O)[C@@H](N)C1` [Oseltamivir, oseltamivir], the “NAI inhibition phenotype (NI/RI/HRI)” value is “HRI (HRI is a >100-fold increase)”.

Consider peramivir, for which the “NAI inhibition phenotype (NI/RI/HRI)” value was “HRI (HRI is a >100-fold increase)”.
